Results from cells or extracts need not show a direct contact. For some of these results: Tags and fusion partners may be left off the protein sequences shown. For some of these results: Construct, isoform or probe ends are uncertain for at least one entry.
Legend:
Test in all cases: EMSA
[1] = target: CDP (CUX1) (Homo sapiens) (UniProt P39880); conditions: protein in an extract, protein details: endogenous, 293 or THP-1 nuclear extract, label: radiolabel
PDX1 (Homo sapiens) = PDX1 (Homo sapiens) (UniProt P52945); conditions: protein in an extract, protein details: endogenous, 293 or THP-1 nuclear extract, label: radiolabel
SATB1 = target: T1, SATB1 (UniProt Q01826); conditions: label: radiolabel
T1 sequence (looked up, limits assumed): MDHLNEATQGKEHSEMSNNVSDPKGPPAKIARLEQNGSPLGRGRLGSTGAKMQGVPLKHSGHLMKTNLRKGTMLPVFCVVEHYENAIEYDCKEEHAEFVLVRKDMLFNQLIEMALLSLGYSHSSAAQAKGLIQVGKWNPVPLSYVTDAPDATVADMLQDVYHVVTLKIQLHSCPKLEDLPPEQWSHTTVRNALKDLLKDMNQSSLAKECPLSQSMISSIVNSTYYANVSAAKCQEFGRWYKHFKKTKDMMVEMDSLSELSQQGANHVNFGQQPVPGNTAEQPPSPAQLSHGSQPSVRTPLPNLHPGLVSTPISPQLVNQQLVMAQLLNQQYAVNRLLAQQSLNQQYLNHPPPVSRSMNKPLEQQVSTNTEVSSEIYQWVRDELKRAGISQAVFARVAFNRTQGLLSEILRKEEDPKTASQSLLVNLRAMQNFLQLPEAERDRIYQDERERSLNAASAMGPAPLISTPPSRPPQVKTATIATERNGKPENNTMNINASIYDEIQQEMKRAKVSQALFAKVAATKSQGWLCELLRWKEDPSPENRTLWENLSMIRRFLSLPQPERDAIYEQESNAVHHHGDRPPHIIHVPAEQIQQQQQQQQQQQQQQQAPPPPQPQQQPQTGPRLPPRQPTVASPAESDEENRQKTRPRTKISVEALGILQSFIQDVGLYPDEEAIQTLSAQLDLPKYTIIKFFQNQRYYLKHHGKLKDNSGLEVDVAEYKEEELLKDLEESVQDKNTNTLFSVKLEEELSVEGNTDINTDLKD

By UniProt entry, the sequences of proteins in these tests, tags left out. Where a name states a change or a piece, a line headed by the entry shows the natural chain unless it says otherwise.
UniProt P39880: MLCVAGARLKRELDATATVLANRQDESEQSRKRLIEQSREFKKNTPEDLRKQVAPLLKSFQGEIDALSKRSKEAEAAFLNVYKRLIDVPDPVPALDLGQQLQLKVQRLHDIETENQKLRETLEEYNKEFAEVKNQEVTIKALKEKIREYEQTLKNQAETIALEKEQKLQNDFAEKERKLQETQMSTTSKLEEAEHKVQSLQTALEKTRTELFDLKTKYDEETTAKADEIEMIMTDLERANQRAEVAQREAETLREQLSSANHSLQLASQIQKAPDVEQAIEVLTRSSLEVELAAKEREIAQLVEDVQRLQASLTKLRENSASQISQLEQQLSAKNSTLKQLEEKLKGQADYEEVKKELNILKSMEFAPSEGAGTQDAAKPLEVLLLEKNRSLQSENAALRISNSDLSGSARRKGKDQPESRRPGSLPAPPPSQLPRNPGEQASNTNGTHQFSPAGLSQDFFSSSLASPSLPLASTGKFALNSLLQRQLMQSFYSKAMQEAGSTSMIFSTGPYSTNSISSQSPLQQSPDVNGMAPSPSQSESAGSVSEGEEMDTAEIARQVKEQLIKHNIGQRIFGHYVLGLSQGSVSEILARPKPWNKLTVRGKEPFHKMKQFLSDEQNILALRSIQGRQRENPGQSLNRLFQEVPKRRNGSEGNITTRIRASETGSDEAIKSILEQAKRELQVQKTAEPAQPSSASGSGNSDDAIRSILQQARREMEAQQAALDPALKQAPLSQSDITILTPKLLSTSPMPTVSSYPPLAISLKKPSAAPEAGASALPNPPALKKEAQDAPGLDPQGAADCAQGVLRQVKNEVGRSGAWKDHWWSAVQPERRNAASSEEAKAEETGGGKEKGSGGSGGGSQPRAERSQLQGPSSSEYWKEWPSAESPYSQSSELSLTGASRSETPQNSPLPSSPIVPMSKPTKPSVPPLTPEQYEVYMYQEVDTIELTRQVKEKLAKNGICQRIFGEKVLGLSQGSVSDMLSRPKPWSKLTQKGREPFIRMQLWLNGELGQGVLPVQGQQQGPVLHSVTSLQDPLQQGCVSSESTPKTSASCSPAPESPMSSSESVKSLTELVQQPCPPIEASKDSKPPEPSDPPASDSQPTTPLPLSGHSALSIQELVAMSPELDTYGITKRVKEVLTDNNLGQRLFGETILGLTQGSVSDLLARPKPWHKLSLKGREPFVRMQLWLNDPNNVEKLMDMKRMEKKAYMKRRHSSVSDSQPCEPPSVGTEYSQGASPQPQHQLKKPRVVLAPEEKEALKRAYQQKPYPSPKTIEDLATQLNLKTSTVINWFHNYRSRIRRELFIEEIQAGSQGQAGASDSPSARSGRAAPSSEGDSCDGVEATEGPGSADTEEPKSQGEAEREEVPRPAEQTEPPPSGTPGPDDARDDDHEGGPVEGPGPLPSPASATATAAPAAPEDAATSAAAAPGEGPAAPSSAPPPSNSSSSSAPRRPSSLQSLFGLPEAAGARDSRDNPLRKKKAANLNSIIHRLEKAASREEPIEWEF
UniProt P52945: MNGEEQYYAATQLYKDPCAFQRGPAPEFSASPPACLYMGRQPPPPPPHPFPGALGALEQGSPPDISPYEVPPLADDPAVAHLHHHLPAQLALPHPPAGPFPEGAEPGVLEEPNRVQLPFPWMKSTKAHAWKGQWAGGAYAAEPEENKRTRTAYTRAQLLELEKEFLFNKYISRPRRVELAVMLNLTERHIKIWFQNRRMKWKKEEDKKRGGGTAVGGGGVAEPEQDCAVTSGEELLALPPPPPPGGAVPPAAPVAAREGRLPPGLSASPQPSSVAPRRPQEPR

[2] = 293 complex C1 disrupted by antibody, in THP-1 only after PMA

Measured: binding result

TAAATCAATATTGGCTATTGGCCATTGCATACGTTGTATCTATATCATAATATGTACA (double strand) [CMV-687 to -640]
binds: [1]; 293 C3, THP-1 M1 and M2 | PDX1 (Homo sapiens); 293 C3, THP-1 M1 and M2 | SATB1; 293 C3, THP-1 M1 and M2, protein in an extract, protein details: endogenous, 293 or THP-1 nuclear extract

TTGAATCAATATTGGCCATTAGCCATATTATTCATTGGTTATATAGCATAAATCAATA (double strand) [CMV-735 to -688]
binds: [1]; 293 C1*, PMA-treated THP-1 | PDX1 (Homo sapiens); 293 C1* supershift, PMA-treated THP-1 | SATB1; 293 C1* and C2*, THP-1 S1* and S2*, protein in an extract, protein details: endogenous, 293 or THP-1 nuclear extract

GGCATTGATTATTGACTAGTTATTAATAGTAATCAATTACGGGGTCATTAGTTCA (double strand) [CMV-593 to -549]
binds: [1]; [2] | PDX1 (Homo sapiens); [2] | SATB1; 293 complexes C1 and C2 disrupted by antibody, THP-1 S1 and S2 supershifted, protein in an extract, protein details: endogenous, 293 or THP-1 nuclear extract | SATB1; two complexes, likely monomer and homodimer, protein translated in vitro, protein details: pCITE-SATB1, TNT reticulocyte lysate
